Anti-infective test results gathered from many reports (values: NIAID ChemDB through PubChem).

Common to all: host cell toxicity; cell line: HeLa; endpoint: CC50

CCn: concentration that lowers growth or viability of the cells by n%. Blank or dashed fields: not listed here. Rows are shuffled and stem from different studies.

SMILES	method	result
O=c1cc(O)c2c(-c3cccc(O)c3)ccnc2n1O	-	<100 µM
CC(=O)c1ccc2c(c1)CSSC2	MTT	163.9 µM
O=c1cc(NCc2ccccc2)c2cccnc2n1O	-	<100 µM
CC(C)(C)C1CN(C(=O)C(=O)c2c[nH]c3cccc(F)c23)CCN1C(=O)c1ccccc1	XTT	127 µM
CC1=C(C(=O)O)C(c2ccco2)NC(=O)N1	XTT	>100 µM
CCCCCC1CN(C(=O)c2ccccc2)CCN1C(=O)C(=O)c1c[nH]c2cccc(F)c12	XTT	33 µM
Cc1cccc2c1CSSC2	MTT	267.4 µM
CC(C)CC1CN(C(=O)c2ccccc2)CCN1C(=O)C(=O)c1c[nH]c2cccc(F)c12	XTT	28 µM
COc1cnc(-n2ccnn2)c2[nH]cc(C(=O)C(=O)N3CCN(C(=O)c4ccccc4)CC3)c12	trypan blue	>100 µM
CCOC(=O)[C@@]1(C)CC[C@]2(C)CC[C@]3(C)C(=CC(=O)[C@@H]4[C@@]5(C)CC/C(=N\OCc6ccc(Cl)cc6)C(C)(C)[C@@H]5CC[C@]43C)[C@@H]2C1	MTT	56.12 µM
CCCCCCCC(=O)O[C@H]1[C@H](O)[C@H](n2ccc(N)nc2=O)O[C@@H]1CO	neutral red	0.09 µg/mL
O=C(OC1CCCCC1)c1nc(-c2ccccn2)[nH]c(=O)c1O	luminescence	>50 µM
NC(=O)CCNC[C@H](Cc1ccc(O)cc1)NC[C@H](Cc1ccc(O)cc1)NC[C@H](Cc1ccc(O)cc1)NC[C@H](Cc1ccc(O)cc1)NC[C@H](Cc1ccc(O)cc1)NC[C@@H](N)Cc1ccc(O)cc1	MTS	>100 µM
Cc1csc(C(=O)CCCCOc2ccc(C3=NCCO3)cc2)c1	-	73 µM
CCOC(=O)[C@@]1(C)CC[C@]2(C)CC[C@]3(C)C(=CC(=O)[C@@H]4[C@@]5(C)CC/C(=N\OCc6ccccc6Cl)C(C)(C)[C@@H]5CC[C@]43C)[C@@H]2C1	MTT	46.4 µM
O=c1cc(NCCc2cccnc2)c2cccnc2n1O	-	<100 µM
Br.CN1C=CN(c2cccc(N3C=CN(C)C3)n2)C1	sulforhodamine / absorbance	>30 µM
O=c1[nH]c(=O)n([C@H]2C[C@H](O)[C@@H](CO)O2)cc1I	neutral red	45 µg/mL
CC1=C(C(=O)OCc2ccccc2)C(c2ccc(Cl)cc2)NC(=O)N1	XTT	>100 µM
CCOC(=O)[C@@]1(C)CC[C@]2(C)CC[C@]3(C)C(=CC(=O)[C@@H]4[C@@]5(C)CC/C(=N\OCc6cccc7ccccc67)C(C)(C)[C@@H]5CC[C@]43C)[C@@H]2C1	MTT	>100 µM
CC(C)CC1CN(C(=O)C(=O)c2c[nH]c3cccc(F)c23)CCN1C(=O)c1ccccc1	XTT	69 µM
COc1cnc(-n2cc(F)cn2)c2[nH]cc(C(=O)C(=O)N3CCN(C(=O)c4ccccc4)CC3)c12	trypan blue	>100 µM
NC(=O)CCNC[C@H](Cc1ccc(O)cc1)NC[C@H](Cc1ccc(O)cc1)NC[C@H](Cc1ccc(O)cc1)NC[C@@H](N)Cc1ccc(O)cc1	MTS	>100 µM
CNC(=O)c1ncc(F)c2c(C(=O)C(=O)N3CCN(C(=O)c4ccccc4)CC3)c[nH]c12	trypan blue	>100 µM
Cc1cc(-c2nc(C(=O)N[C@H](C)C3CCCCC3)c(O)c(=O)[nH]2)nc2ccccc12	luminescence	>5.37 µM
CCOC(=O)[C@@]1(C)CC[C@]2(C)CC[C@]3(C)C(=CC(=O)[C@@H]4[C@@]5(C)CC/C(=N\OCc6ccc7ccccc7c6)C(C)(C)[C@@H]5CC[C@]43C)[C@@H]2C1	MTT	81.28 µM
c1cc(C2=NCCO2)ccc1OCCCCCN1CCCC1	-	165 µM
CCOC(=O)[C@@]1(C)CC[C@]2(C)CC[C@]3(C)C(=CC(=O)[C@@H]4[C@@]5(C)CC/C(=N\OCc6ccc(Br)cc6)C(C)(C)[C@@H]5CC[C@]43C)[C@@H]2C1	MTT	9.89 µM
CC1=C(C(=O)O)C(c2ccc(N)cc2)NC(=O)N1	XTT	>100 µM
CN(C)c1ccc2c(c1)CSSC2	MTT	>473.1 µM
CCNC(=O)c1ncn(-c2ncc(OC)c3c(C(=O)C(=O)N4CCN(C(=O)c5ccccc5)CC4)c[nH]c23)n1	trypan blue	>100 µM
O=c1cc(-c2ccc(-c3ccn[nH]3)cc2)c2cccnc2n1O	-	<100 µM
CCOC(=O)c1ccc(OCCCCC(=O)c2sccc2C)cc1	-	202 µM
CCCCCCCCCCCC=O	trypan blue	190 µg/mL
CN1CCN(c2cc(=O)n(O)c3ncccc23)CC1=O	-	<100 µM
C[C@@H](NC(=O)c1nc(-c2ncccc2C(F)(F)F)[nH]c(=O)c1O)C1CCCCC1	luminescence	>50 µM
CCCC1CN(C(=O)C(=O)c2c[nH]c3cccc(F)c23)CCN1C(=O)c1ccccc1	XTT	100 µM
CCOC(=O)c1ccc(OCCCCC(=O)c2cc[nH]c2)cc1	-	>317 µM
CC(C)(C)c1ccc2c(c1)CSSC2	MTT	125.2 µM
CC(Nc1cc(=O)n(O)c2ncccc12)c1ccccc1	-	<100 µM
COc1cnc(-c2nnc(C)o2)c2[nH]cc(C(=O)C(=O)N3CCN(C(=O)c4ccccc4)[C@H](C)C3)c12	trypan blue	>100 µM
O=C(OCCC1CCCCC1)c1nc(-c2ccccn2)[nH]c(=O)c1O	luminescence	>50 µM
CCOC(=O)[C@@]1(C)CC[C@]2(C)CC[C@]3(C)C(=CC(=O)[C@@H]4[C@@]5(C)CC/C(=N\OCc6ccc(C)cc6)C(C)(C)[C@@H]5CC[C@]43C)[C@@H]2C1	MTT	28.03 µM
O=C(C(=O)N1CCN(C(=O)c2ccccc2)CC1)c1c[nH]c2c(-n3cccn3)ccnc12	trypan blue	>100 µM
C[C@H]1CN(C(=O)c2ccccc2)CCN1C(=O)C(=O)c1c[nH]c2cccc(F)c12	XTT	>300 µM
O=C(C(=O)N1CCN(C(=O)c2ccccc2)CC1)c1c[nH]c2c(-n3cccc3)ncc(F)c12	trypan blue	>100 µM
CCOC(=O)c1ccc(OCCCCC(=O)c2ccc(C)o2)cc1	-	65 µM
O=C(C(=O)N1CCN(C(=O)c2ccccc2)CC1)c1c[nH]c2c(-n3nccn3)ccnc12	trypan blue	>100 µM
CCOC(=O)[C@@]1(C)CC[C@]2(C)CC[C@]3(C)C(=CC(=O)[C@@H]4[C@@]5(C)CC/C(=N\OCc6ccc(F)c(F)c6)C(C)(C)[C@@H]5CC[C@]43C)[C@@H]2C1	MTT	23.73 µM
CC1=C(C(=O)OCc2ccccc2)C(c2ccc([N+](=O)[O-])cc2)NC(=O)N1	XTT	>100 µM
CCOC(=O)c1ccc(OCCCCCc2ccc(Cl)s2)cc1	-	>284 µM
CCOC(=O)[C@@]1(C)CC[C@]2(C)CC[C@]3(C)C(=CC(=O)[C@@H]4[C@@]5(C)CC/C(=N\OCc6ccc(C#N)cc6)C(C)(C)[C@@H]5CC[C@]43C)[C@@H]2C1	MTT	>100 µM
O=C(c1c(O)c2cccnc2n(O)c1=O)N1CCCCC1	-	<100 µM
CCC1CN(C(=O)c2ccccc2)CCN1C(=O)C(=O)c1c[nH]c2cccc(F)c12	XTT	157 µM
CC1=C(C(=O)OCc2ccccc2)C(c2ccc(F)cc2)NC(=O)N1	XTT	>100 µM
O=c1cc(C2=Cc3ccccc3CC2)c2cccnc2n1O	-	<100 µM
CC(C)(C)C1CN(C(=O)c2ccccc2)CCN1C(=O)C(=O)c1c[nH]c2cccc(F)c12	XTT	105 µM

A second listing of 5 rows from above:

SMILES,method,result
CN1CCN(c2cc(=O)n(O)c3ncccc23)CC1=O,-,<100 µM
CCOC(=O)[C@@]1(C)CC[C@]2(C)CC[C@]3(C)C(=CC(=O)[C@@H]4[C@@]5(C)CC/C(=N\OCc6ccc(Br)cc6)C(C)(C)[C@@H]5CC[C@]43C)[C@@H]2C1,MTT,9.89 µM
CC(C)(C)C1CN(C(=O)c2ccccc2)CCN1C(=O)C(=O)c1c[nH]c2cccc(F)c12,XTT,105 µM
O=c1cc(NCc2ccccc2)c2cccnc2n1O,-,<100 µM
COc1cnc(-n2cc(F)cn2)c2[nH]cc(C(=O)C(=O)N3CCN(C(=O)c4ccccc4)CC3)c12,trypan blue,>100 µM